The text below walks through data of PubChem BioAssay AID624416 (The Scripps Research Institute Molecular Screening Center, 2012).

SMILES strings stand for the structures. Only a part is listed here, and it is no random draw. The source made the active and inactive calls. Rule as the data show it: active = inhibition above about 8.5%; inactive = the rest.

This test deals with HIV-1 gp120 / PG9 antibody interaction. The test can be described thus: binders of HIV-1 gp120 antibody PG9, primary screen, biochemical, TR-FRET (AID 624416). Particulars: TR-FRET gp120-PG9 antibody binding; at 6.7 µM; stronger effect = higher value.
`COP1(=S)c2c(C)nn(CCC#N)c2N=C(c2ccc(F)cc2)N1C` (stereo unspecified): the inhibition was inactive: -0.16%.
For `COC(=O)C1(C)COP(=O)(N2CCCC2)OC1` (stereo unspecified), the inhibition was inactive: -1.47%.
With `O=C(O)C(=O)c1ccc(N(CCCl)CCCl)cc1` the figure was inactive: -2.52%.
With `O=C(COc1ccccc1)OC1CN2CCC1CC2` (stereo unspecified) the figure was inactive: 0.22%; with `O=C(Nc1ccncc1[N+](=O)[O-])c1ccc([N+](=O)[O-])cc1[N+](=O)[O-]`, inactive: 0.41%; with `O=C(OC1CN2CCC1CC2)c1cccc([N+](=O)[O-])c1` (stereo unspecified), inactive: -2.76%.
With `CCOC(=O)c1ccc(NC(=O)C(C)(CCl)SC)cc1` (stereo unspecified) the figure was inactive: -4.16%.
`CCC(C)N(CC(C)C)C(=S)SC(NC(C)=O)C(Cl)(Cl)Cl` (stereo unspecified): the inhibition is inactive: -2.01%.
With `O=C(O)C(O)c1ccc(N(CCCl)CCCl)cc1` (stereo unspecified) the figure was inactive: -0.05%.
With `CCOC(=O)Nc1ccc([As](=O)(O)O)c(O)c1`, the inhibition is inactive: 0.33%.
With `CC1CCNP(=O)(N(CCCl)CCCl)O1` (stereo unspecified) the figure was inactive: -0.4%; with `COP(=O)(OC)N1CC1c1ccccc1` (stereo unspecified), inactive: -0.41%.
Regarding `CCCCOc1ccc(C(=O)NCC2(N3CCCCC3)CCCCC2)cc1OC`, the inhibition is inactive: -2.42%.
With `Cc1cc(SC(NC(=O)c2ccccc2)C(Cl)(Cl)Cl)nc(C(C)C)n1` (stereo unspecified) the figure was inactive: 0.24%; with `CCOC(=O)Nc1cccc([As](=O)(O)O)c1`, inactive: 1%.
With `Cc1cc(SC(NC=O)C(Cl)(Cl)Cl)ncn1` (stereo unspecified) the figure was inactive: -2.58%; with `O=P(Nc1ccccn1)(c1cccc2ccccc12)c1cccc2ccccc12`, inactive: -1.72%.
With `O=[N+]([O-])c1ccc(Nc2ccc(Oc3ccc([N+](=O)[O-])cc3[N+](=O)[O-])cc2)c([N+](=O)[O-])c1` the figure was inactive: 1.28%; with `O=[As](O)(c1ccc(O)cc1)c1ccccc1O`, inactive: -0.7%; with `C[As](=O)(O)c1cccc(C(=O)O)c1`, inactive: -1.71%.
Take `COc1cc(C(=O)NCC2(N3CCOCC3)CCCCC2)ccc1OCC(C)C`: the inhibition was inactive: -1.95%.
With `O=[N+]([O-])c1ccc(-c2cc([N+](=O)[O-])c(O)c([N+](=O)[O-])c2)cc1` the figure was inactive: 0.52%.
In the case of `Cc1ccc(OP(=O)(Nc2ccc([N+](=O)[O-])cn2)Oc2ccc(C)cc2)cc1`, the inhibition was inactive: 1.23%.
Take `[N-]=[N+]=NC1CCCCC1NC(=O)c1cc([N+](=O)[O-])cc([N+](=O)[O-])c1` (stereo unspecified): the inhibition is inactive: -1.11%.
With `Cc1ccc2nc3c(c(C)c2c1)CC(C(Cl)Cl)S3` (stereo unspecified) the figure was inactive: -0.42%; with `ClCCSc1nnc(-c2cccnc2)o1`, inactive: -1.59%; with `CC(C)c1ccc(OP(=O)(Nc2ccccn2)Oc2ccccc2F)cc1` (stereo unspecified), inactive: 0.3%.
With `COC(=O)C1(C)COP(=O)(N2CCCCCC2)OC1` (stereo unspecified) the figure was inactive: -0.22%; with `CCN(CC)C(=S)SC(NC=O)C(Cl)(Cl)Cl` (stereo unspecified), inactive: -1.01%; with `O=C(OC1CN2CCC1CC2)c1cccc2[nH]cnc12` (stereo unspecified), inactive: 0.02%.
Turning to `CC(C)NC(=O)NP(=O)(Oc1ccccc1)Oc1ccccc1`, the inhibition is inactive: 0.7%.
With `Cc1c2c(nc3ccccc13)SC(C(Cl)Cl)C2` (stereo unspecified) the figure was inactive: -3.43%.
With `O=C(OC1CN2CCC1CC2)C12CC3CC(CC(C3)C1)C2` (stereo unspecified) the figure was inactive: 1.16%; with `Cc1cc(=O)[nH]c(N[N+](=O)[O-])n1`, inactive: -0.06%.
As for `O=P1(N(CCCl)CCCl)Nc2ccccc2N1`, the inhibition is inactive: -1.83%.
On to `O=P1(N(CCCl)CCCl)OCCCN1CCCl` (stereo unspecified), for which the inhibition is inactive: -1.82%.
On to `COc1ccc2nc(NP(=O)(c3ccccc3)c3ccccc3)sc2c1`, for which the inhibition was inactive: -0.14%.
With `COc1cc(I)ccc1[As](=O)(O)O` the figure was inactive: 2.22%; with `O=[N+]([O-])c1cc(Oc2ccc([N+](=O)[O-])cc2C(F)(F)F)cc([N+](=O)[O-])c1`, inactive: -0.74%.
With `COc1ccc(N/C(=N/P(=O)(N2CCOCC2)N2CCOCC2)N2CCOCC2)cc1` the figure was inactive: 0.95%.
With `O=C(OC1CN2CCC1CC2)c1ccc(Cl)cc1` (stereo unspecified) the figure was inactive: 0.99%.
With `COc1cc(C(=O)NCC2(N3CCOCC3)CCCCC2)cc(Cl)c1OC(C)C`, the inhibition is inactive: -1.74%.
With `O=[As](O)(O)c1cccnc1` the figure was inactive: -1.36%.
With `CS(=O)(=O)c1ccc(Cl)c(NC(=O)COC(=O)C(O)(c2ccccc2)c2ccccc2)c1` the figure was inactive: -1.58%; with `O=[As](O)(c1cccc(O)c1)c1cccc(O)c1`, inactive: 1.4%; with `Cc1cccc(OCC(=O)OC2CN3CCC2CC3)c1` (stereo unspecified), inactive: -1.82%.
Regarding `Cc1ccc(NCCc2c([N+](=O)[O-])cc([N+](=O)[O-])cc2[N+](=O)[O-])cc1`, the inhibition is inactive: -0.89%.
With `Nc1cccc2c([As](=O)(O)O)cccc12` the figure was inactive: -3.43%; with `CCCOP(=S)(Nc1nc(N)cc(=O)[nH]1)OCCC`, inactive: 0.48%; with `COc1cc(C2NCCC3(OCCO3)C2(C)C)cc(OC)c1OC` (stereo unspecified), inactive: -0.88%.
With `CCOP(=O)(Nc1cccc2ccccc12)OCC` the figure was inactive: -0.38%; with `CCOP1(=S)c2c(C)nn(CCC#N)c2N=C(c2ccccc2F)N1C` (stereo unspecified), inactive: 0.79%; with `O=P(Nc1nccs1)(Oc1ccccc1)Oc1ccccc1`, inactive: 1.24%.
With `O=C(O)COc1ccc([As](=O)(O)O)cc1[N+](=O)[O-]` the figure was inactive: -0.78%; with `Nc1ccccc1[As](=O)(O)c1ccccc1`, inactive: 0.07%.
As to `NC(=O)Nc1ccc([As](=O)(O)O)cc1`, the inhibition was inactive: 0.47%.
With `N#CCCN(C(=O)COC(=O)C(O)(c1ccccc1)c1ccccc1)c1ccc(F)cc1` the figure was inactive: -0.98%; with `CN(C(=O)Cc1ccccc1)[C@@H]1CC[C@]2(CCCO2)C[C@H]1N1CCCC1`, inactive: -1.51%.
With `CCOP1(=S)c2c(C)nn(CCC#N)c2N=C(c2ccc(F)cc2)N1C` (stereo unspecified) the figure was inactive: 0.14%; with `CN(C)C(=O)c1cc([N+](=O)[O-])cc2c1-c1c(cc([N+](=O)[O-])cc1[N+](=O)[O-])C2=O`, inactive: -2.96%; with `O=[N+]([O-])c1ccc2c(c1)nnn2O`, inactive: 1.67%.
With `CN(C(=O)Cc1ccc(Cl)c(Cl)c1)[C@H]1CC[C@@]2(CCCO2)C[C@@H]1N1CCCC1` the figure was inactive: -1.11%.
As for `Cc1nn(-c2ccccc2)c2c1P(=O)(N1CCOCC1)N(C)C(c1ccccc1)=N2` (stereo unspecified), the inhibition was inactive: -1.62%.
With `Cc1ccc(C(=O)OC2CN3CCC2CC3)cc1` (stereo unspecified) the figure was inactive: -1.45%; with `CC1CCC(C(C)C)C(OP(=O)(Nc2ccccn2)c2ccccc2)C1` (stereo unspecified), inactive: -1.46%; with `CN(C)C1(CNC(=O)c2ccc(S(C)(=O)=O)cc2)CCCCC1`, inactive: 0.65%.
With `O=C(/C=C/c1ccccc1)OC1CN2CCC1CC2` (stereo unspecified) the figure was inactive: 1.18%; with `CCCC1OP(=O)(Nc2ccccc2)OCC1CC` (stereo unspecified), inactive: 0.13%; with `Cc1ccc(S(=O)(=O)N(CCCN)CCCc2c(C)nc(N)[nH]c2=O)cc1`, inactive: 1.22%.
With `O=P1(Nc2ncccn2)COc2ccccc2OC1` the figure was inactive: 1.67%; with `Nc1cccc([As](=O)(O)c2ccccc2)c1`, inactive: 0.28%; with `NS(=O)(=O)c1cccc(NC(=O)COC(=O)C(O)(c2ccccc2)c2ccccc2)c1`, inactive: -0.28%.
As to `O=P1(Nc2ccc(Br)cn2)COc2ccccc2OC1`, the inhibition is inactive: -1.68%.
`Cc1ccc(OCC(=O)OC2CN3CCC2CC3)cc1` (stereo unspecified): the inhibition is inactive: 0.61%.
Turning to `O=[As](O)(c1cccs1)c1cccs1`, the inhibition is inactive: 0.97%.
With `CCC1=CC2Cc3nc4ccc(Cl)cc4c(N)c3C(C1)C2` (stereo unspecified) the figure was inactive: 0.42%; with `O=P1(Nc2ccccn2)COc2ccccc2OC1`, inactive: -0.37%.
Regarding `CCOP(=O)(NC(=NC(C)c1ccccc1)NC(C)c1ccccc1)OCC` (stereo unspecified), the inhibition is inactive: -1.62%.
Turning to `CN(CCCl)Cc1cc(Cl)c(NC2=NCCN2)c(Cl)c1`, the inhibition is inactive: -0.06%.
With `CCOP(=O)(Nc1ccc(C)cn1)OCC` the figure was inactive: 1.31%; with `Clc1n[nH]nc1-c1nn[nH][15n]1`, inactive: -0.13%; with `O=P1(N(CCCl)CCCl)NCCC(C(F)(F)F)O1` (stereo unspecified), inactive: 1.07%.
`CC(C)(C)C(=O)NC(Sc1ncccn1)C(Cl)(Cl)Cl` (stereo unspecified): the inhibition is inactive: -0.27%.
With `COc1ccccc1CNC(=O)COC(=O)C(O)(c1ccccc1)c1ccccc1`, the inhibition is inactive: -0.82%.
With `CN(C(=O)Cc1ccc(Cl)c(Cl)c1)[C@@H]1CCCC[C@H]1N1CCCC1` the figure was inactive: 0.34%; with `CC(C)/C=N\N=C(\N)N[N+](=O)[O-]`, inactive: -0.8%.
Regarding `CN(C(=O)Cc1ccc(Cl)c(Cl)c1)C1CCCC[C@@H]1N1CCCC1` (stereo partly specified), the inhibition was inactive: -0.33%.
As for `CC1(CBr)Cn2c(nc3ccccc3c2=O)S1` (stereo unspecified), the inhibition was inactive: 1.34%.
With `O=P(Nc1nccs1)(c1ccccc1)c1ccccc1` the figure was inactive: 1.79%; with `CC(C)C(=O)NC(Sc1ccccc1)C(Cl)(Cl)Cl` (stereo unspecified), inactive: -1.22%.
With `c1nnnn1CCn1cnnn1` the figure was inactive: 0.26%.
With `CN(C)C1(CNC(=O)c2ccc(Cl)c(S(N)(=O)=O)c2)CCCCC1` the figure was inactive: -1.43%; with `O=P(Nc1ccccn1)(c1ccc(Br)cc1)c1ccc(Br)cc1`, inactive: -2.6%; with `Nc1ccc(CCCCOc2ccccc2)cc1`, inactive: -0.08%.
`COc1ccc(N)c([N+](=O)[O-])c1[N+](=O)[O-]`: the inhibition is inactive: -3.62%.
With `O=P(Nc1nc2ccccc2s1)(c1ccccc1)c1ccccc1` the figure was inactive: 1.81%.
With `C[C@H]1OP(=O)(Oc2ccccc2)[C@H](O)[C@H](O)[C@H]1N=[N+]=[N-]` (stereo partly specified) the figure was inactive: 1.24%.
With `O=[As](O)(c1ccccc1)c1ccc(O)cc1` the figure was inactive: 0.49%; with `CC(=O)NC(SC(=S)N(C)C)C(Cl)(Cl)Cl` (stereo unspecified), inactive: -0.87%.
Turning to `O=[N+]([O-])c1ncn(CCn2cnc([N+](=O)[O-])n2)n1`, the inhibition is inactive: -1.9%.
With `O=C(OC1CN2CCC1CC2)c1cccc(Cl)c1` (stereo unspecified) the figure was inactive: -1.95%.
